In the supplement of paper PMC9931576:
Numbering of substitutions follows the chain as printed. Human monoclonal antibodies against the spike receptor-binding domain (heavy:light variable regions). IC50 against pseudoviruses bearing the spike of naturally observed variants; lower = stronger; >10 µg/ml means not reached at the top dose. No active / inactive call. The stated detection limit is 0.0005 µg/ml; values near or below 0.001 µg/ml lie at the floor of the assay.

B1: BD-870 (protein)
chain 1: EAQLVESGGGLVQPGGSLRLSCEASGFPFSTYEMNWVRQAPGKGLEWLSKITSSGGTVLYADSVKGRFTMSRDNARDSLYLQMNSLTVEDTAVYYCARVKRVSSWFFELWGRGTLVTVSS
chain 2: DIQMTQSPSTLFASVGDTVTITCRTSQSISSWVAWYQQKPGKAPKLLIYKTSSLESGVPSRFSGGGSGTEFTLTISSLQSDDFATYYCQQCDGYSTFAQGTKLEIK
B2: BD-907 (protein)
chain 1: QVQLVQSGSELKKPGASVKVSCKASGYTFSSYYLNWVRQAPGQGLEWMGWIDTNTGNPTYAQAFTGRFVFSLDTSVSTAYLQIGSLQANDTAVYYCAREGGGWSGLYYYFGMDVWGQGTTVTVSS
chain 2: EIVLTQSPGTLSLSPGERATVSCRASQSIGSNYLAWYQQKPGQAPRLLIYGASSRATGIPDRFSGSGSGTDFTLTISRLEPEDFAVYYCQQYGSSPPYTFGQGTKLEIK
B3: BD55-556 (protein)
chain 1: QVQLQESGPGLVKPSETLSLTCSVSNGSFSSYYWSWIRQPPGKGLEWIGYIYNSGSTNYNPSLKSRVTISVDPSKNQFSLKLSSVTAADTAVYYCARLIGDFRDDYNPRIYDAFDIWGQGTMVTVSS
chain 2: DIQMTQSPSSVSASVGDRVTITCRASQGVSSWLAWYQQKPGKAPKLLIYAASSLQSGVPSRFSGSGSGTDFTLTISSLQPEDFATYYCQQANSFPLTFGQGTKLEIK
B4: BD55-1970 (protein)
chain 1: EVQLVESGGGLVQPGGSLRLSCVASEITVSSNYMNWVRQAPGKGLEWVSVIYSGGSTFYADSVKGRFTISRDSSKNTLFLQMNSLRVEDTAVYYCARDLDYYGMDVWGQGTTVTVSS
chain 2: DIQLTQSPSFLSASVGDRVTITCRASQGISNYLAWYQQKPGKAPKLLIYAASTLQSGVPSRFSGSGSGTEFTLTISSLQPEDFATYYCQQLNSYTYPFGQGTKLEIK
B5: BD55-1831 (protein)
chain 1: QVQLQESGPGLVKPSQTLSLTCTVSGGSISNGDYYWSWIRQPPGKGLEWIGYIHNSGSTYKKLSLRSRLTISVDTSKNQFSLKLSSVTAADTAVYYCARTASPSGAWYFDFWGRGTLVTVSS
chain 2: SYVLTQPPSVSVAPGQTARITCGGNDIGSKNVHWYQQKPGQAPLLVVYDDTDRPSGIPERFSGSNSGNPATLTISRVEAGDEADYYCQVWDSSFDHVIFGGGTKLTVL
B6: BD-863 (protein)
chain 1: QLQLQESGPGLVKPSETLSLTCSVSGGSIGSSTYYWGWIRQPPGKGLEWIGSVFYSGITYYNPSLKTRVTISVDTSKNQFSLKVTSVTPPDTAFYYCARVTRLMEPAGSVDSWGQGTLVTVSS
chain 2: QSALTQPASVSGSLGQSITISCTGTSSDVGSYDLVSWYQQHPGKAPKFMIYEVNKRPSGVSNRFSGSKSGNTASLTISGLQTEDEAEYYCCSYVSNGALLFGGGTKVTVL
B7: BD-897 (protein)
chain 1: QVQLVQSGAEVKKPGSSVKVSCKTSGDTLSRDAITWVRQAPGQGLEWMGRIIPMFAIANYAPKFQGRVTITADKSTSTVYVEISSVRSEDTAVYYCARGAYQSGSSGYHLEEWGQGTLVIVSS
chain 2: EIVLTQSPGTLSLSPGERATLSCRASQALSGNYLAWYQQVPGQPPRLLIYGASIRASGIPDRFSGSGSGTDFTLTISRLEPADFAVYYCHQYHNSPRTFGQGTKVEV
B8: BD-616 (protein)
chain 1: EVQLVESGGGLVQPGGSLRLSCAASGFIVSSNYMSWVRQAPGKGLEWVSVIYSGGSTYYADSVKGRFTISRDNSKNTLYLRMNSLRAEDTAVYYCARAPYCSSRSCETWGQGTLVTVSS
chain 2: DIQMTQSPSSLSASVGDRVTITCQASQDIRNYLNWYQQKPGKAPNLLIYDASNLETGVPSRFSGSGSGTDFTFTINSLQPEDIATYYCQQYDNLPITFGQGTRLEIK
B9: BD55-1957 (protein)
chain 1: QVQLVQSGAEVKKPGSSVKVSCKASGGAFSSYPISWVRQAPGQGLEWMGRVIPILGIANYAQNFQGRVTITADKSSSTAYMELSSLRSEDTAVYYCARDQGYYGSSGSAYYFDYWGQGTLVTVSS
chain 2: QSVLTQPPSVSGAPGQRVTISCTGSSSNIGAGYDVHWYQQLPGTAPKLLIHANSNRPSGVPDRFSGSKSGTSASLAITGLQAEDEADYYCQSYDSSLSDSVFGGGTKLTVL
B10: BD-913 (protein)
chain 1: QVQLVQSGAEVKKPGSSVKVSCKASGGTFSTYAISWVRQAPGQGLEWMGGIIPIVGIANDAQKFQGRVTITADKSTSTAYMELSSLRSEDTAVFYCARAQRKQWPVEDAYDIWGQGTMVTVSS
chain 2: B9 chain 2 with H51Y, A52G, D99G, L108V
B11: BD-898 (protein)
chain 1: QMQLVQSGPEVKKPGTSVKVSCKASGFNFYYSAVQWVRQARGQRLEWIGWIVVGSGNTDYAHDFKERVTITRDMSTSTAFMELISLRPEDTAIYYCAAPHCSGGTCYDGFDLWGQGTVITVSS
chain 2: DIVLSQSPDTLSLSPGESAALSCRASQSVRSSYLAWYQQKPGQAPRLLIYGASSRATGIPDRFSGSGSGTDFTLTINRLEPEDFAVYYCQQYSNSPWTFGHGTKVEIK
B12: BD-826 (protein)
chain 1: QVQLQESGPGLVKPSETLSLTCNVSGGGSISRYNWNWIRQSAGKGLEWLGQMYSSGSTSFNSSLKSRVSMSLDTSKNQFSLMLTSVTAADTAVYYCVRVLPGLAENWFDSWGQGILVTVSS
chain 2: SYVLLQPPSVSVAPGKTATITCGGNNLGIKSVHWYQQKPGQAPLLVIYYDSDRPSGIPERFSGSHSGNTATLTISRVEGGDEADYYCQVWDTTDDHPLFGGGTKLTVL

Columns and labels:
Assay in all cases: pseudovirus neutralization IC50; higher = weaker neutralization
[1] = target: SARS-CoV-2 Omicron BA.1 spike pseudovirus
Procedure: (§1)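 Single-round VSV luciferase pseudovirus mixed with antibody dilutions for 1 h and put on Huh-7 cells for about a day; IC50 from the dose curve.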

[2] = target: SARS-CoV-2 Omicron BA.2 spike pseudovirus
Procedure: as §1

[3] = target: SARS-CoV-2 Omicron BA.2.75 spike pseudovirus
Procedure: as §1

[4] = target: SARS-CoV-2 Omicron BA.5 spike pseudovirus
Procedure: as §1

[5] = target: SARS-CoV-2 Omicron BQ.1.1 spike pseudovirus
Procedure: as §1

[6] = target: SARS-CoV-2 Omicron XBB spike pseudovirus
Procedure: as §1

[7] = target: SARS-CoV-2 early D614G spike pseudovirus
Procedure: as §1

Row | Binder | pseudovirus neutralization IC50 [1] [µg/mL] | pseudovirus neutralization IC50 [2] [µg/mL] | pseudovirus neutralization IC50 [3] [µg/mL] | pseudovirus neutralization IC50 [4] [µg/mL] | pseudovirus neutralization IC50 [5] [µg/mL] | pseudovirus neutralization IC50 [6] [µg/mL] | pseudovirus neutralization IC50 [7] [µg/mL]
1 | B1 | > 10 | > 10 | > 10 | > 10 | > 10 | > 10 | 0.007
2 | B2 | 0.296 | 0.345 | > 10 | 0.468 | > 10 | > 10 | 0.063
3 | B3 | > 10 | > 10 | > 10 | > 10 | > 10 | > 10 | 0.0152
4 | B4 | > 10 | > 10 | > 10 | > 10 | > 10 | > 10 | 0.00732
5 | B5 | 4.64 | 3.12 | 4.27 | > 10 | > 10 | > 10 | 1.42
6 | B6 | > 10 | > 10 | > 10 | > 10 | > 10 | > 10 | > 10
7 | B7 | 0.0113 | 0.0159 | 0.0176 | > 10 | > 10 | > 10 | 0.005
8 | B8 | > 10 | > 10 | > 10 | > 10 | > 10 | > 10 | 0.0585
9 | B9 | 2.5 | 1.7 | 1.74 | 3.64 | > 10 | > 10 | 0.63
10 | B10 | > 10 | > 10 | > 10 | > 10 | > 10 | > 10 | 0.328
11 | B11 | 0.00032 | 0.000394 | 0.000528 | 0.00125 | 0.00598 | > 10 | 0.005
12 | B12 | 0.877 | 0.739 | 0.848 | 5.52 | > 10 | > 10 | 0.256
